# Measurements reported in PubChem BioAssay AID1259414 (Drosophila RNAi Screening Center, 2018)
# Assay: 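Fly genes that alter Wolbachia amount inside host cells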 (primary screen)
# System: Drosophila JW18 cells infected with Wolbachia
# Knock-down reagent: long dsRNA against Drosophila genes, 0.25 µg dsRNA per well of a 384-well plate
# Duration: 5 days
# Conditions: cells persistently infected with Wolbachia before knock-down; no added drug
# Measured: 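Imaged fluorescence in situ signal for Wolbachia 23S rRNA per DAPI-counted host cell, given as a robust z-score within each plate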
# Scale: Wolbachia per cell robust z: higher = more Wolbachia per host cell than the plate typical
# Rule for the call: 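Active if absolute robust z reaches 1.5 in two or more of three replicates, leaving out multi- or no-target dsRNAs, genes unexpressed in JW18 and A1 wells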
# The deposit covers about 24,000 reagents; below is an unselected part of those that have a named target and a result. Over the whole deposit, about 1,210 (5%) got an active call. 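Inactive calls also include excluded dsRNAs with several or no targets, genes unexpressed in JW18, and well A1, regardless of score.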 Entries without a mark were called inactive. Reagent sequences are not shown.
target gene,DRSC id,"Wolbachia per cell robust z, rep 1","Wolbachia per cell robust z, rep 2","Wolbachia per cell robust z, rep 3"
CG12123 (GeneID 31777),DRSC17818,-1.18,-2.39,0.0038
CG31680 (GeneID 318881),DRSC21878,-2.16,-1.07,-0.468
PGAP5 (GeneID 34116),DRSC03089,0.484,-0.293,-1.27
PGAP5 (GeneID 34116),DRSC27504,1.09,-0.63,-0.699
CG34448 (GeneID 5740554),DRSC26596,0.414,1.09,-0.305
CG34448 (GeneID 5740554),DRSC41472,0.433,0.13,-0.882
mRpS2 (GeneID 33688),DRSC00550,-0.296,-0.394,1.1
CG10725 (GeneID 39510),DRSC09788,0.864,-0.59,-0.675
Zip88E (GeneID 41847),DRSC15562,-0.127,0.293,0.558
Zip88E (GeneID 41847),DRSC25826,-0.32,-1.18,-2.17
eIF1 (GeneID 38398),DRSC08520,1.1,-2.33,0.498
eIF1 (GeneID 38398),DRSC30115,0.496,2.33,0.872
Mst33A (GeneID 34578),DRSC03371,-2.24,0.86,1.88
Mst33A (GeneID 34578),DRSC27156,0.371,0.404,-5.72
anchor (GeneID 39965),DRSC10861,0.608,0.637,-0.32
l(2)dtl (GeneID 46326),DRSC04697,-3.89,-0.709,0.968
l(2)dtl (GeneID 46326),DRSC26021,-0.17,1.09,0.441
CG3342 (GeneID 31586),DRSC18304,-4.72,0.857,-0.00468
CG3342 (GeneID 31586),DRSC30048,-0.138,-0.385,-2.59
Cib2 (GeneID 37363),DRSC04535,-1.48,1.46,0.351
Lsd-1 (GeneID 42810),DRSC14236,-0.16,-0.212,-0.488
CG2493 (GeneID 35316),DRSC02707,0.254,0.283,0.179
jv (GeneID 318008),DRSC08831,0.914,0.737,-3.24
jv (GeneID 318008),DRSC25736,-0.668,-0.453,0.696
Arms (GeneID 37433),DRSC03856,-0.0677,-0.656,0.314
Arms (GeneID 37433),DRSC03857,-0.524,-1.08,-0.377
Arms (GeneID 37433),DRSC04052,-1.89 (active),-2.21,0.348
Arms (GeneID 37433),DRSC04256,1.58,0.652,1.04
Arms (GeneID 37433),DRSC28371,-0.17,-0.349,-0.592
Pc (GeneID 40358),DRSC24966,0.218,-0.919,-0.766
Cpr5C (GeneID 31510),DRSC18340,0.944,0.566,0.183
PXo (GeneID 38666),DRSC09734,0.377,0.553,-0.436
CG10589 (GeneID 40313),DRSC11629,-0.21,0.868,0.774
CG30369 (GeneID 246572),DRSC21996,0.89,1.16,-0.221
CG30369 (GeneID 246572),DRSC29843,-2.4,0.181,0.92
CG13675 (GeneID 38907),DRSC23124,-3.02,0.809,3
CG3397 (GeneID 41454),DRSC15487,-2.75,0.298,2.02
CG17944 (GeneID 40885),DRSC12572,-2.39,-1.22,-0.458
eve (GeneID 36039),DRSC24980,-1.45,0.715,-0.807
eve (GeneID 36039),DRSC40684,-1.77,0.121,0.0313
rn (GeneID 40879),DRSC12543,-0.193,0.597,0.901
rn (GeneID 40879),DRSC12544,0.126,0.141,1.12
rn (GeneID 40879),DRSC12546,0.407,-0.4,-0.528
rn (GeneID 40879),DRSC22291,0.888,0.464,1.05
rn (GeneID 40879),DRSC25073,-0.779,-1.32,-1.36
rn (GeneID 40879),DRSC27211,0.524,0.72,-4.92
sds22 (GeneID 42091),DRSC17052,-0.158,-0.098,-8.88
CG1324 (GeneID 33060),DRSC20496,0.601,-0.245,-0.55
CG1324 (GeneID 33060),DRSC25582,-0.0137,0.187,-0.388
CG2685 (GeneID 31259),DRSC18463,1.22 (active),2.29,2.44
CG2685 (GeneID 31259),DRSC27295,0.493,0.655,-0.531
l(3)mbn (GeneID 38701),DRSC08793,-0.788,-0.493,-2.46
Sse (GeneID 38640),DRSC09746,2.8 (active),1.63,1.35
Kif19A (GeneID 41717),DRSC16576,-0.416,-1.27,0.309
Kif19A (GeneID 41717),DRSC23867,0.0874,1.43,1.28
meso18E (GeneID 53448),DRSC20351,1.38,1.37,1.36
meso18E (GeneID 53448),DRSC25315,0.539,-0.65,-0.000285
hlk (GeneID 46017),DRSC05021,-1.56,-2.14,-0.814
hlk (GeneID 46017),DRSC05022,0.184,-0.313,-0.0649
hlk (GeneID 46017),DRSC26150,0.877,0.806,0.0747
Cdc16 (GeneID 42753),DRSC16920,0.279,0.178,-0.0124
Spn43Aa (GeneID 45041),DRSC06117,0.047,-0.616,-3.44
tHMG2 (GeneID 42651),DRSC16182,-0.195,-1.61,-1.31
robl (GeneID 36963),DRSC07674,-2.64,-1.2,-1.12
Taf9 (GeneID 32762),DRSC20326,0.491,1.37,-0.291
Taf9 (GeneID 32762),DRSC25903,0.175,2.25,-1.06
Ser (GeneID 43275),DRSC16856,-1.32,-0.0469,-0.0888
Ser (GeneID 43275),DRSC25494,-0.267,-0.726,0.262

Just “Wolbachia per cell robust z, rep 1”, for 7 of the entries above:
eIF1 (GeneID 38398) [DRSC08520]	1.1
eIF1 (GeneID 38398) [DRSC30115]	0.496
Mst33A (GeneID 34578) [DRSC03371]	-2.24
Mst33A (GeneID 34578) [DRSC27156]	0.371
anchor (GeneID 39965) [DRSC10861]	0.608
l(2)dtl (GeneID 46326) [DRSC04697]	-3.89
l(2)dtl (GeneID 46326) [DRSC26021]	-0.17
